Values from PubChem BioAssay AID504761 (Drosophila RNAi Screening Center, 2011)
Screen: 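Fly genes whose silencing reduces dengue virus type 2 infection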 (primary screen). Cells: D.Mel-2 cells from Drosophila. Reagents: long dsRNA against Drosophila genes. Treatment: infection with dengue virus type 2; dose and infection time not stated. Read-out: 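Cells stained for dengue envelope protein and imaged; percent of infected cells per well on duplicate plates, ranked by infection, with stained nuclei counted for cell number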. Direction: infection score: higher = more virus-infected cells; cell count: higher = more cells in the well. Rule for the call: 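Low infection ranks in the two replicates (chance level up to 0.065) followed by a retest with a 1.5-fold or larger significant decrease, p below 0.05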. Calls: active = confirmed: knock-down lowers infection; inactive = not picked or not confirmed.
The deposit covers about 22,000 reagents; below is an unselected part of those that have a named target and a result. In the full data, 116 (0.52%) were called active. 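Calls depend on retest data that are not deposited; infection was ranked per plate without normalising between plates; the unit of the infection score is not given.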 The raw values are shown without normalisation. Not stated in the record: the amount of reagent, the time to read-out.

p120ctn [DRSC07753] → infection score, replicate 1: 3.69; infection score, replicate 2: 3.43; cell count, replicate 1: 6554; cell count, replicate 2: 6069; activity call: inactive
Efhc1.1 [DRSC20135] → infection score, replicate 1: 6.39; infection score, replicate 2: 1.08; cell count, replicate 1: 6075; cell count, replicate 2: 6373; activity call: inactive
Rrp5 [DRSC15862] → infection score, replicate 1: 8.66; infection score, replicate 2: 1.38; cell count, replicate 1: 5887; cell count, replicate 2: 6461; activity call: inactive
Rrp5 [DRSC29039] → cell count, replicate 1: 410; cell count, replicate 2: 305; activity call: inactive
Ntf-2r [DRSC02019] → infection score, replicate 1: 11.6; infection score, replicate 2: 11.9; cell count, replicate 1: 3827; cell count, replicate 2: 4863; activity call: inactive
CG17544 [DRSC02624] → infection score, replicate 1: 11.7; infection score, replicate 2: 19.5; cell count, replicate 1: 6626; cell count, replicate 2: 6309; activity call: inactive
CG17544 [DRSC25562] → infection score, replicate 1: 0.96; infection score, replicate 2: 3.19; cell count, replicate 1: 5524; cell count, replicate 2: 6105; activity call: inactive
Cog1 [DRSC15661] → infection score, replicate 1: 6.51; infection score, replicate 2: 9.63; cell count, replicate 1: 6635; cell count, replicate 2: 6522; activity call: inactive
Tsp5D [DRSC18380] → infection score, replicate 1: 3.28; infection score, replicate 2: 3.74; cell count, replicate 1: 5822; cell count, replicate 2: 5637; activity call: inactive
CG5515 [DRSC15825] → infection score, replicate 1: 10.6; infection score, replicate 2: 1.28; cell count, replicate 1: 6491; cell count, replicate 2: 6496; activity call: inactive
pippin [DRSC04489] → infection score, replicate 1: 10.6; infection score, replicate 2: 28.1; cell count, replicate 1: 6646; cell count, replicate 2: 2100; activity call: inactive
CG17712 [DRSC00266] → infection score, replicate 1: 0.9; infection score, replicate 2: 4.61; cell count, replicate 1: 6235; cell count, replicate 2: 5488; activity call: inactive
CG5539 [DRSC04510] → infection score, replicate 1: 3.55; infection score, replicate 2: 4.2; cell count, replicate 1: 6598; cell count, replicate 2: 6828; activity call: inactive
RPA2 [DRSC03184] → infection score, replicate 1: 21.3; infection score, replicate 2: 38.6; cell count, replicate 1: 5146; cell count, replicate 2: 4478; activity call: inactive
RPA2 [DRSC29750] → infection score, replicate 1: 22.7; infection score, replicate 2: 4.31; cell count, replicate 1: 4168; cell count, replicate 2: 5293; activity call: inactive
pie [DRSC03590] → infection score, replicate 1: 9.15; infection score, replicate 2: 21.8; cell count, replicate 1: 6328; cell count, replicate 2: 5871; activity call: inactive
spn-F [DRSC14475] → infection score, replicate 1: 7.2; infection score, replicate 2: 1.79; cell count, replicate 1: 1959; cell count, replicate 2: 6243; activity call: inactive
spn-F [DRSC29328] → infection score, replicate 1: 17.1; infection score, replicate 2: 7.8; cell count, replicate 1: 2939; cell count, replicate 2: 1589; activity call: inactive
CG30060 [DRSC05419] → infection score, replicate 1: 1.23; infection score, replicate 2: 0.25; cell count, replicate 1: 6504; cell count, replicate 2: 6336; activity call: inactive
TwdlR [DRSC14736] → cell count, replicate 1: 346; cell count, replicate 2: 408; activity call: inactive
CG12231 [DRSC19445] → infection score, replicate 1: 1.42; infection score, replicate 2: 0.03; cell count, replicate 1: 5709; cell count, replicate 2: 6432; activity call: inactive
